# Tested on: P. pachyrhizi urediniospores
# Test: Affinity selection of phage-display peptides against germinated urediniospores
# Format: binding, Phakopsora pachyrhizi
# Settings: three affinity-selection rounds against germinated urediniospores; among the 20 bioactive clones
row,Sequence,Number of phage-peptide clones recovered
1,"TPTRSLDSPHNM (Random peptide insert) [Sp59, 12-mer phage-display selected peptide]",2
2,MLESHAWPPRAI (Random peptide insert) [Sp2],3
3,"STVASLGKPTKI (Random peptide insert) [Sp8, 12-mer phage-display selected peptide]",1
4,"FDPHEPTNTRSP (Random peptide insert) [Sp15, 12-mer phage-display selected peptide]",2
5,"LTKEPATGRAML (Random peptide insert) [Sp18, 12-mer phage-display selected peptide]",4
6,"ASTIGNLMPGHS (Random peptide insert) [Sp14, 12-mer phage-display selected peptide]",2
7,"TFDRHILDTRGS (Random peptide insert) [Sp6, 12-mer phage-display selected peptide]",1
8,"YISPLPNAATIS (Random peptide insert) [Sp5, 12-mer phage-display selected peptide]",1
9,"DHIRISTSYKSP (Random peptide insert) [Sp51, 12-mer phage-display selected peptide]",1
10,YNKPSFQDHSVI (Random peptide insert) [Sp39],2
11,"DRFTSDLRAPDS (Random peptide insert) [Sp61, 12-mer phage-display selected peptide]",1
